{"source": "PubChem BioAssay AID2472", "about": "(National Center for Advancing Translational Sciences (NCATS), 2010)", "note": "This is a selection; strong and weak results do not stand in their true shares. Some salts and complexes are drawn in separate pieces, as the source files them; their charges need not balance. Calls of active or inactive are those of the source. No stated cut-off is given here; in the data, active means activity change below about -30%; inactive means the rest, inconclusive results apart. On the % scale 0 is the no-effect control and ±100 the full control effect.", "data": [{"assay": "qHTS Assay for Inhibitors of Fructose-1,6-bisphosphate Aldolase from Giardia Lamblia: Coupling assay counterscreen", "conditions": "coupling enzyme system counterscreen, AmpLite Red fluorescence; at 58.2 µM (top of the series)", "excerpt": "MLPCN Grant: MH085699-01 Assay Provider: Osnat Herzberg, University of Maryland NCGC Assay Overview: The objective of this project is to obtain compounds that inhibit Giardia lamblia growth. G. lamblia is a human pathogen which afflicts impoverished nations; it is the most common cause of outbreaks of diarrhea in the United States. During the course of our study of potential drug targets in Giardia, we have identified the Class II (Zn2+ functions in electrophilic catalysis) fructose-1,6-bisphosphate aldolase (FBPA) as an excellent candidate for drug targeting. FBPA is a key glycolytic pathway enzyme, essential for G. lamblia survival. The human FBPA belongs to the Class I aldolases, which have a different substrate binding site structure and a radically different catalytic mechanism (employing a lysine-Schiff base intermediate). Therefore, affinity-based or mechanism-based inhibitors of the Giardia FBPA are expected not to interfere with the catalytic function of the human FBPA. A glyceraldehyde-3-phosphate dehydrogenase/triose phosphate isomerase/NAD/arsenate coupled assay was adapted to the 1536-well HTP format for use in the primary screen. This was done by coupling it to a diaphorase/resazurin/resorufin reaction that can be monitored by fluorescence (excitation, 544 nm; emission, 590 nm). Compounds identified in this screen will be further evaluated by coupling the […]/triose phosphate isomerase/NADH assay to a phenazine methosulfate/tetranitroblue tetrazolium color reaction. False positives due to the dehydrogenases and diaphorase inhibition will be eliminated, and selectivity assay will triage inhibitors of mammalian triose phosphate isomerase and the Class I FBPA. G. lamblia FBPA inhibitors identified by the in vitro analyses will be examined for growth inhibition of Giardia trophozoites, and for cytotoxicity in human cells. This assay specifically addresses whether activity observed in the primary screen (AID 2451) is related to inhibition of the coupling assay used, as opposed to inhibition of aldolase. Actives in this assay are considered inconclusive for activity against aldolase.\nNCGC Assay Protocol: Step,Parameter,Value,Description 1,Coupling enzyme reagent,2 uL,glyceraldehyde-3-phosphate 2,Compound,23 nL,3.68 nM-57.5 uM final concentration 3,Time,10 min,RT Incubation 4,Substrate/detection Reagent,2 uL,Substrate + enzyme coupling system + AmpLite Red kit 5,Time,20 min,RT Incubation 6,Detector,525 nm/598 nm (Fluorescence),ViewLux Fluorescence Read (Read 1) Notes: 1,Medium-binding black solid-bottom Kalypsys plates. FRD or Kalypsys dispenser. 2,Compound Library (10 mM ,1:5 dilution). Pin-transferred for a [final] range of 3.68 nM-57.5 uM. 3,RT incubation 4,FRD or Kalypsys dispenser, 2 uL of reaction mixture. Bottle kept at 4C and covered in foil to protect from light. 5,RT incubation 6,ViewLux Protocol 1194; Excitation filter wheel A (525/20 Pol; BODIPY TMR FP), Emission filter wheel B (598/25 S; BODIPY TMR FP S). Keywords: Fructose-bisphosphate aldolase, FBPA , Giardia lamblia , Giardia, HTS, Inhibitors", "values": [{"compound": "CCOc1ccc(C)cc1CN(CCCl)CCCl", "activity change, negative = inhibition": "inactive: 4.28%"}, {"compound": "COc1ccc(NC2CCN(CCc3ccccc3)CC2)c(OC)c1", "activity change, negative = inhibition": "inactive: -6.31%"}, {"compound": "CCOC(=O)N1CCC(Nc2ccc(F)cc2)CC1", "activity change, negative = inhibition": "inactive: 4.59%"}, {"compound": "O=C(NCC1(N2CCCCC2)CCCCC1)c1ccc(F)cc1", "activity change, negative = inhibition": "inactive: 2.9%"}, {"compound": "Cc1ccc(OCC(C)C)c(CN(CCCl)CCCl)c1", "activity change, negative = inhibition": "inactive: -0.229%"}, {"compound": "CCOC(=O)N1CCC(Nc2cccc(C)c2)CC1", "activity change, negative = inhibition": "inactive: 0.256%"}, {"compound": "COc1cc(C(=O)NCC2(N(C)C)CCCCC2)ccc1OC(F)F", "activity change, negative = inhibition": "inactive: 1.7%"}, {"compound": "O=C(NCC1(N2CCCCC2)CCCCC1)c1ccc(=O)[nH]c1", "activity change, negative = inhibition": "inactive: -0.161%"}, {"compound": "COc1ccc(C(=O)NCC2(N3CCCCC3)CCCCC2)c(OC)c1OC", "activity change, negative = inhibition": "inactive: -1.61%"}, {"compound": "CC(C)(C)OC(=O)N1CCC(N(C(=O)c2ccccc2)c2ccc(F)cc2)CC1", "activity change, negative = inhibition": "inactive: 2.11%"}, {"compound": "COc1ccc(C(=O)NCC2(N3CCCCC3)CCCCC2)cc1", "activity change, negative = inhibition": "inactive: -1.73%"}, {"compound": "CSc1ccccc1C(=O)NCC1(N2CCCCC2)CCCCC1", "activity change, negative = inhibition": "inactive: 1.33%"}, {"compound": "O=C(NCC1(N2CCOCC2)CCCCC1)c1cc2ccccc2o1", "activity change, negative = inhibition": "inactive: -3.23%"}, {"compound": "Cc1cc(C)cc(N(C(=O)c2ccccc2)C2CCN(C(=O)OC(C)(C)C)CC2)c1", "activity change, negative = inhibition": "inactive: 0.885%"}, {"compound": "CCOC(=O)N1CCC(Nc2ccc(OC)cc2)CC1", "activity change, negative = inhibition": "inactive: -2.18%"}, {"compound": "N#CC1(Nc2ccccc2)CCN(Cc2ccccc2)CC1", "activity change, negative = inhibition": "inactive: 6.93%"}, {"compound": "O=C(OC1CN2CCC1CC2)C1c2ccccc2Oc2ccccc21", "note": "(stereo unspecified)", "activity change, negative = inhibition": "inactive: 2.64%"}, {"compound": "O=[N+]([O-])c1cc([N+](=O)[O-])c(OC2CCCCC2O)c([N+](=O)[O-])c1", "note": "(stereo unspecified)", "activity change, negative = inhibition": "inactive: 14.3%"}, {"compound": "CN(C)c1cccc(C(=O)NCC2(N3CCCCC3)CCCCC2)c1", "activity change, negative = inhibition": "inactive: -1.22%"}, {"compound": "COc1ccc(CN(CCCl)CCCl)cc1Cl", "activity change, negative = inhibition": "inactive: 0.528%"}, {"compound": "CC(C)c1ccc(NC2CCN(C(=O)OC(C)(C)C)CC2)cc1", "activity change, negative = inhibition": "inactive: -0.598%"}, {"compound": "COc1cc(OC)c(C(=O)NCC2(N(C)C)CCCCC2)cc1OC", "activity change, negative = inhibition": "inactive: 4.62%"}, {"compound": "COc1ccc2c(c1O)-c1c(O)c(OC)cc3c1[C@H](C2)[N+](C)(C)CC3.O=[N+]([O-])c1cc([N+](=O)[O-])c([O-])c([N+](=O)[O-])c1[O-]", "activity change, negative = inhibition": "inactive: -16.6%"}, {"compound": "O=C(OC1CN2CCC1CC2)c1ccc([N+](=O)[O-])cc1", "note": "(stereo unspecified)", "activity change, negative = inhibition": "inactive: -1.74%"}, {"compound": "CCCOc1ccc(C(=O)NCC2(N(C)C)CCCCC2)cc1OC", "activity change, negative = inhibition": "inactive: -0.371%"}, {"compound": "O=C(NCC1(N2CCCCC2)CCCCC1)c1ccc(OC(F)F)cc1", "activity change, negative = inhibition": "inactive: 0.913%"}]}]}
